Measurements reported in publication PMC3323551.

Target: T1, His-OpaR (Vibrio parahaemolyticus RIMD 2210633) (UniProt Q79YV4)
T1 sequence: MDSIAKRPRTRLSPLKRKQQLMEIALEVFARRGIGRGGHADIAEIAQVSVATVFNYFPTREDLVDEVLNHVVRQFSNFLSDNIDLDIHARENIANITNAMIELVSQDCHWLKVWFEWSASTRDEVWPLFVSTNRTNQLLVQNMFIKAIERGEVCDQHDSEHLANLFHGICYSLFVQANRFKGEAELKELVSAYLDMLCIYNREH
Assay: EMSA
Conditions: 1 mM MgCl2, 0.5 mM EDTA, 0.5 mM DTT, 50 mM NaCl, 10 mM Tris-HCl pH 7.5, 0.05 mg/ml poly(dI-dC), room temperature, 30 min; footprinting same buffer; recombinant protein; residues 1-204; protein details: 6xHis (pET28a, BamHI/HindIII); label: 5'-32P; probe letters rebuilt from the primers and the genome

Sequence: TGTGGGTTGAGGTAGGTCGCACGCAAACGATCACCTAATCTTACGGCGTGTAGTGTATCACCACGAAGAGTGGGTTGAAAGTCACATCCTTTTGCGGAAAATTCTTGGGAGCGCTGCCAAATTTTCGAAAGTTTACAGCAAAACTTATCAATAATAATGACATTACTGTCTATAAATTATCCATCAGATGTTGACCTTGTGCATATGCACCATTACACTCATCACTGCTTAAAGCAATTATTAAAATAATCAATTAGGGGGTTACCCCCAACAACAACTCAAATGGCAAGGAAAATGGATATGGACTCAATTGCAAAGAGACCTAGAACTAGGC (double strand) [opaR promoter EMSA fragment]
- binding result: binds
